A mixed list of measured activities; the numbers were collected in NIAID ChemDB.

Common to all: growth or infection tests; species: HIV-1

An empty or dashed field is not shown. Neighbouring rows are from separate reports. ECn: concentration that inhibits the pathogen or its effect by n%.

compound	read by	measure	setting	changes	cell line	strain or isolate	result
C#C[C@]1(CO)O[C@@H](n2cc(C)c(=O)[nH]c2=O)C[C@@H]1O		EC50					0.22 µg/mL
CC(C)(C)NC(=O)[C@@H]1C[C@@H]2CCCC[C@@H]2CN1C[C@@H](O)[C@H](Cc1ccccc1)NC(=O)CC(C)(C)S(C)(=O)=O		EC50					0.25 µM
CN1C(=O)N(Cc2ccccc2)S(=O)(=O)c2cscc21	syncytia	EC50			MT-4	RF	32.1 µM
Cc1cccc(N2C(=O)CSC2c2ccc(N(C)C)cc2)n1	cytopathic effect	EC50			MT-4	IIIB	73.7 µM
Cc1cn([C@H]2C=C[C@@H](CO)O2)c(=O)[nH]c1=O	p24	EC50		RT-delta67 T69G	MT-2		0.5 µM
CC(C)=CCN1c2cc(Cl)cc3[nH]c(=S)n(c23)C[C@@H]1C		EC50		RT-M41L T215Y Y181C	MT-4		>3 µM
CCc1c(CC23CC4CC(CC(C4)C2)C3)nc(SCc2ccc(OC)cc2)[nH]c1=O	MTT / absorbance	EC50			MT-4	RES056	>10.32 µM
CCCCCCCCCCCCCCCCOP(=O)(OCCO[C@@H]1O[C@H](CO)[C@@H](O)[C@H](O)[C@@H]1O)OC[C@H]1O[C@@H](n2cc(C)c(=O)[nH]c2=O)C[C@@H]1N=[N+]=[N-]	cytopathic effect / MTT	EC50	22 d		CEM-C113 + CEM/C113	BRU	>1 µM
CC(=O)c1ccc(NC(=O)CSc2nc(CC34CC5CC(CC(C5)C3)C4)c(C)c(=O)[nH]2)c(Br)c1	MTT / absorbance	EC50			MT-4	IIIB	1.3 µM
Cc1cc(S(N)(=O)=O)ccc1NC(=O)COc1ccc(Cl)cc1C(=O)c1cc(Br)cc(C(F)(F)F)c1	β-galactosidase	EC50			HeLa + HeLa-MAGI	HXB2	0.03 µM
CCN1C(=O)N(Cc2ccccc2)S(=O)(=O)c2cscc21	syncytia	EC50		RT-Y188H	CEM		>310.2 µM
CCOCn1c(Cc2ccccc2)c(C(C)C)c(=O)[nH]c1=O	cytopathic effect / MTT	EC50			MT-4	IIIB	0.006 µM
CCc1c(CC23CC4CC(CC(C4)C2)C3)nc(SCC(=O)c2ccccc2)[nH]c1=O	MTT / absorbance	EC50			MT-4	RES056	>20.42 µM
O=C(O)P(=O)(O)O		EC50		RT-W88C	HT4LACZ-1 + HT4 LacZ-1	HX88C (RT-W88C)	49.5 µM
CC(C)[C@H](NC(=O)N(C)Cc1ccccn1)C(=O)N[C@@H](Cc1ccccc1)[C@H](O)[C@H](O)[C@H](Cc1ccccc1)NC(=O)[C@@H](NC(=O)N(C)Cc1ccccn1)C(C)C	p24	EC50			CEM	IIIB	0.124 µM
O=C1N(Cc2ccc3[nH]ncc3c2)[C@H](Cc2ccccc2)[C@H](O)[C@@H](O)[C@@H](Cc2ccccc2)N1Cc1ccc2[nH]ncc2c1	hybridisation	EC50			MT-2	RF	<0.008 µM
N#Cc1ccc(Nc2nc(Oc3c(Cl)cc(Cl)cc3Cl)ncc2N)cc1	MTT	EC50			MT-4	IIIB	0.01155 µM
Cc1cc(S(N)(=O)=O)ccc1NC(=O)COc1ccc(Cl)cc1C(=O)c1cccc(C#N)c1	cytopathic effect / MTS	EC50			MT-4	IIIB WT	0.001 µM
CC1SC(c2c(F)cccc2F)N(Cc2ccco2)C1=O	cytopathic effect	EC50			MT-4	IIIB	108 µM
Cc1cc(S(N)(=O)=O)ncc1NC(=O)COc1ccc(Cl)cc1C(=O)c1cc(Cl)cc(C#N)c1	β-galactosidase	EC50		RT-Y181C	HeLa + HeLa-MAGI	HXB2	0.002 µM
CC(C)=CCOc1c2occc2cc2ccc(=O)oc12	p24	EC50			H9	IIIB	11.1 µM
C[C@@H]1C[C@@H]([C@H](O)CC2CC(=O)NC(=O)C2)C(=O)[C@@H](C)C1		EC50			MT-2	RF	0.1 µg/mL
Nc1n[nH]c2ccc(CN3C(=O)N(Cc4ccc5[nH]nc(N)c5c4)[C@H](Cc4ccccc4)[C@H](O)[C@@H](O)[C@H]3Cc3ccccc3)cc12	hybridisation	EC50			MT-2	RF	<2.76 µM
O=c1[nH]cnc2c1ncn2[C@H]1CC[C@@H](CO)O1	cytopathic effect	EC50			MT-4	IIIB	0.46 µM
Cc1cccc(N2C(=O)CSC2c2cccnc2)n1	cytopathic effect	EC50			MT-4	IIIB	316 µM
CC[C@H](C)[C@H](NC(=O)Cc1ccccn1)C(=O)N[C@@H](Cc1ccccc1)[C@@H](O)[C@H](O)[C@H](Cc1ccccc1)NC(=O)[C@@H](NC(=O)Cc1ccccn1)[C@@H](C)CC	plaque count / virus yield	EC90			MT-2	RF	1 µg/mL
CC(C)(C)NC(=O)[C@@H]1C[C@@H]2CCCC[C@@H]2CN1C[C@@H](O)[C@H](Cc1ccccc1)NC(=O)[C@@H](NC(=O)COc1cccnc1)C(C)(C)S(C)(=O)=O		EC50		PR-L101I I84V L90M			0.017 µM
Cc1cn([C@H]2C[C@H](N=[N+]=[N-])[C@@H](COP(=O)(O)OC[C@H]3O[C@@H](OCCO)[C@@H](O)[C@@H](O)[C@@H]3O)O2)c(=O)[nH]c1=O	cytopathic effect / MTT	EC50	7 d		CEM-C113 + CEM/C113	BRU	<0.2 µM
O=c1[nH]cnc2c1ncn2[C@H]1CC[C@@H](CO)O1	p24	EC50		1(T69G+K103N)	MT-2	RT-T69G K103N	0.633 µM
O=c1[nH]cnc2c1ncn2[C@H]1CC[C@@H](CO)O1		EC50			HT4LACZ-1 + HT4 LacZ-1	HX	6.7 µM
CCN(c1ncccc1NC(C)(C)C)C1CCN(C(=O)c2cc3cc(NS(C)(=O)=O)ccc3[nH]2)CC1	p24	EC50			PBMC	Isolate 461	<0.03 µM
Cc1ccnc2c1NC(=O)c1cccnc1N2C1CC1	syncytia	EC50		RT-L100I	CEM		0.3 µM
Cc1cc(C)c(Oc2ncc(N)c(Nc3ccc(C#N)cc3)n2)c(C)c1	MTT	EC50			MT-4	RES056	0.75 µM
O=C(O)P(=O)(O)O	syncytia	EC50			HT4LACZ-1 + HT4 LacZ-1	LAI-VIRAL CLONE	38 µM
Cc1cc(C#N)cc(C(=O)c2cc(Cl)ccc2OCC(=O)Nc2ncc(S(N)(=O)=O)cc2C)c1	β-galactosidase	EC50			HeLa + HeLa-MAGI	HXB2	0.018 µM
Cc1c(CC23CC4CC(CC(C4)C2)C3)nc(SCC(=O)Nc2ccc(C(N)=O)cc2)[nH]c1=O	MTT / absorbance	EC50			MT-4	RES056	>29.15 µM
Cc1nc(N2C(=O)CSC2c2c(Cl)cccc2Cl)ccc1Br	cytopathic effect	EC50			MT-4	IIIB	1.03 µM
COc1ccc(C(=O)CSc2nc(CC34CC5CC(CC(C5)C3)C4)c(C)c(=O)[nH]2)cc1	MTT / absorbance	EC50			MT-4	RES056	>285 µM
O=C1N(Cc2ccccc2)c2cscc2S(=O)(=O)N1Cc1ccccc1	syncytia	EC50			MT-4	IIIB	2.6 µM
Cc1cc(S(N)(=O)=O)ccc1NC(=O)COc1ccc(Cl)cc1C(=O)c1cc(Cl)cc(C#N)c1	β-galactosidase	EC50			HeLa + HeLa-MAGI	HXB2	0.0005 µM
NS(=O)(=O)c1ccc(Oc2ccc(NC(=O)N[C@@H]3[C@@H]4CCc5c(F)ccc(F)c5[C@@H]43)cc2)cc1	ELISA	EC50		L100I	MT-4 cells	IIIB	0.009 µM
C=C1CC[C@@H]2[C@](C)(CO)[C@H](O)CC[C@@]2(C)[C@@H]1C/C=C1/C(=O)OC[C@H]1O	antigen	EC50			H9	IIIB	>50 µg/mL
Cc1ccccc1NC(=O)COc1ccc(Cl)cc1C(=O)c1cc(F)cc(F)c1	cytopathic effect / MTS	EC50		RT-Y181C	MT-4	Nevirapine-resistant	0.036 µM
Nc1nc(=O)n([C@@H]2CS[C@H](CO)O2)cc1F	cytopathic effect / MTT	EC50			MT-2	IIIB	0.6 µM
CC(=O)N[C@H](C(=O)N[C@@H](Cc1ccccc1)[C@@H](O)CN(CC1CCCCC1)NC(=O)[C@@H](NC(C)=O)C(C)C)C(C)C	RT activity	EC50			MT-2	LAV	<1 µM
Cc1ccc(NC(=O)CSc2nc(CC34CC5CC(CC(C5)C3)C4)c(C)c(=O)[nH]2)c([N+](=O)[O-])c1	MTT / absorbance	EC50			MT-4	IIIB	5.39 µM
Cc1cc(Br)cc(C)c1Oc1ncc(NC(=O)C(F)(F)F)c(Nc2ccc(C#N)cc2)n1	MTT	EC50			MT-4	IIIB	0.0533 µM
COc1ccc(S(=O)(=O)N(CC2CCCC2)C[C@@H](O)[C@H](Cc2ccccc2)NC(=O)O[C@H]2CCOC2)cc1	MTT	EC50			MT-4	HXB2	0.029 µM
Cc1cn([C@H]2C[C@H](N=[N+]=[N-])[C@@H](CO)O2)c(=O)[nH]c1=O	plaque count	EC50			HT4LACZ-1 + HT4 LacZ-1	Q184/RR (recombinant)	2.13 µM
COc1c2ccoc2cc2oc(=O)ccc12	p24	EC50			H9	IIIB	30.1 µM
O=C1CSC(c2c(F)cccc2Cl)N1c1cccc(C(F)(F)F)c1	cytopathic effect	EC50			MT-4	IIIB	7.05 µM
CC(C)n1nc(-c2ccc3oc(N)nc3c2)c2c(N)ncnc21	p24 / ELISA	EC50			PBMC	93BR029	0.00473 µM
Cc1cn([C@H]2C=C[C@@H](CO)O2)c(=O)[nH]c1=O	cytopathic effect / MTT	EC50			MT-2	IIIB	6 µM
CC(=O)c1ccc(C)cc1NC(C(N)=O)c1c(Cl)cccc1Cl	cytopathic effect / MTT	EC50			MT-4	IIIB	0.01 µM
Cc1cc(S(N)(=O)=O)ccc1NC(=O)COc1ccc(Cl)cc1C(=O)c1cc(F)cc(C(F)(F)F)c1	β-galactosidase	EC50			HeLa + HeLa-MAGI	HXB2	0.0014 µM
CN1/C(=C/c2cc3[n+](c4ccccc24)CCCc2ccc4c(c2-3)-c2cccc[n+]2CCC4)Sc2ccccc21.O=S(=O)([O-])C(F)(F)F.O=S(=O)([O-])C(F)(F)F	visual reading / absorbance	EC50			MT-4	NL4-3	0.09 µM
CCc1c(CC23CC4CC(CC(C4)C2)C3)nc(SCC(=O)Nc2ccc(C(C)=O)cc2Br)[nH]c1=O	MTT / absorbance	EC50			MT-4	RES056	>20.54 µM
O=C1CSC(c2c(Cl)cccc2Cl)N1c1cccc(C(F)(F)F)c1	cytopathic effect	EC50			MT-4	IIIB	6.78 µM
Cc1ccnc2c1NC(=O)c1cccnc1N2C1CC1	cytopathic effect / MTT	EC50			MT-4	IIIB	0.04 µM
Cc1cc(S(N)(=O)=O)ccc1NC(=O)COc1ccc(Cl)cc1C(=O)c1cc(Cl)cc(Br)c1	β-galactosidase	EC50			HeLa + HeLa-MAGI	HXB2	0.0022 µM
C[C@H](Cn1cnc2c(N)ncnc21)OCP(=O)(O)O	RT activity	EC50			MT-2	LAI	0.016 µM
Cc1cn([C@H]2C[C@H](N=[N+]=[N-])[C@@H](CO)O2)c(=O)[nH]c1=O	cytopathic effect / MTT	EC50	22 d		CEM-C113 + CEM/C113	BRU	0.45 µM
CC(=O)O[C@@H]1[C@H](OC(=O)CC(C)C)c2c(ccc3ccc(=O)oc23)OC1(C)C	p24	EC50			Macrophage + Monocytes/macrophages	IIIB	3.9 µM
O=C1N(Cc2ccc3[nH]nc(N4CCCC4)c3c2)[C@H](Cc2ccccc2)[C@H](O)[C@@H](O)[C@@H](Cc2ccccc2)N1Cc1ccc2[nH]nc(N3CCCC3)c2c1	hybridisation	EC50			MT-2	RF	<0.12 µM
CC(=O)N[C@H](C(=O)N[C@@H](Cc1ccccc1)[C@@H](O)CN(CC(C)C)NC(=O)[C@@H](NC(C)=O)C(C)C)C(C)C	RT activity	EC90			MT-2	LAV	>1 µM
COc1cc2cc(Oc3ccc4ccc(=O)oc4c3)c(=O)oc2cc1O	p24	EC50			H9	IIIB	>22.7 µM
CCNc1n[nH]c2ccc(CN3C(=O)N(Cc4ccc5[nH]nc(NCC)c5c4)[C@H](Cc4ccccc4)[C@H](O)[C@@H](O)[C@H]3Cc3ccccc3)cc12	hybridisation	EC50			MT-2	RF	<0.065 µM

6 of the rows above, restated:

compound | read by | measure | setting | changes | cell line | strain or isolate | result
Cc1ccc(NC(=O)CSc2nc(CC34CC5CC(CC(C5)C3)C4)c(C)c(=O)[nH]2)c([N+](=O)[O-])c1 | MTT / absorbance | EC50 |  |  | MT-4 | IIIB | 5.39 µM
Cc1cc(S(N)(=O)=O)ccc1NC(=O)COc1ccc(Cl)cc1C(=O)c1cc(Cl)cc(Br)c1 | β-galactosidase | EC50 |  |  | HeLa + HeLa-MAGI | HXB2 | 0.0022 µM
O=C1CSC(c2c(F)cccc2Cl)N1c1cccc(C(F)(F)F)c1 | cytopathic effect | EC50 |  |  | MT-4 | IIIB | 7.05 µM
O=C1CSC(c2c(Cl)cccc2Cl)N1c1cccc(C(F)(F)F)c1 | cytopathic effect | EC50 |  |  | MT-4 | IIIB | 6.78 µM
CCCCCCCCCCCCCCCCOP(=O)(OCCO[C@@H]1O[C@H](CO)[C@@H](O)[C@H](O)[C@@H]1O)OC[C@H]1O[C@@H](n2cc(C)c(=O)[nH]c2=O)C[C@@H]1N=[N+]=[N-] | cytopathic effect / MTT | EC50 | 22 d |  | CEM-C113 + CEM/C113 | BRU | >1 µM
C[C@H](Cn1cnc2c(N)ncnc21)OCP(=O)(O)O | RT activity | EC50 |  |  | MT-2 | LAI | 0.016 µM